# Library screen at single concentrations

The filed quantity is “Percent Effect” (%). How 0% and 100% were set is not recorded. Most values in the screen are low, and negative values occur. The entries come from a sample that favours strong results. A dash means the value is not listed here; it may have been measured.

Mtb glucose medium: 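Phenotypic screen: M. tuberculosis growth, glucose 7H9 medium, 3 days; the read-out is not stated. Compounds at 500 µM. Higher reads as more growth inhibition (inferred: compounds with an IC50 in retests scored well above the rest). Of about 18,000 compounds tested this way, about 1,400 (7.9%) reached 50% or more in at least one test.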
Mtb cholesterol medium: 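Growth of Mycobacterium tuberculosis over 4 days (cholesterol / DPPC medium with tyloxapol); the read-out is not stated. Compounds at 500 µM. Direction is inferred from retests: higher values go with more growth inhibition. Size under these conditions: about 18,000 compounds, about 900 of them at 50% or above in at least one test.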

structure	Mtb glucose medium	Mtb cholesterol medium
Cc1nc(CN(C)C2CCCNCC2)no1 (centres unmarked)	18.91	-
CCOCCCNC(=O)c1ccc(C#N)cc1	32.21	-
CN(Cc1nnc[nH]1)C(=O)Cc1cccc(Br)c1	-	-11.86
CNC(=O)c1ccc(S(=O)(=O)N2CCC=C(F)C2)cc1	-	13.22
O=C(Cn1ccc(=O)[nH]c1=O)NCc1cccc(Cl)c1	23.26	-
CN1CCN(Cc2cccc3c2OCO3)CC1	-	7.843
O=S(=O)(CCc1ccccc1)NCCCO	11.65	-
CN(C)CCSCc1noc(C2CCOCC2)n1	4.133	-
O=C(CC1C=CCC1)N1CCN(Cc2ccco2)CC1 (centres unmarked)	71.63	68.7
CC(CCc1ccccc1)CC(=O)N(C)CC(N)=O (centres unmarked)	44.47	41.18
COc1ccc(C(=O)NC(C)Cn2cccn2)c(O)c1 (centres unmarked)	65.8	72.87
CNCC(C)(CO)CO	-0.1	-
OCCNC1CCC1	-11.39	-
CN(CCO)CCNc1cc([C@H]2C[C@H](N)C2)ncn1	-	-23.59
Cc1ccc(NC(=O)C2=NN(C)C(=O)CC2)cc1Cl	-3.173	-
COc1cc(CCNC(=O)C2CCCN2)ccc1F (centres unmarked)	-	-15.48
Cc1ccccc1C(=O)N1CCN(S(C)(=O)=O)[C@@H](C)C1	4.337	-
CNCC1(O)CCOCC1	-	22.87
O=C(Cc1cccs1)NCC1CCCNC1 (centres unmarked)	7.048	-
Cc1cc(N2CCC3(CC2)OCCO3)n2ncnc2n1	-	-21.6
CCCc1ccc(CN2CCCN(C(C)=O)CC2)o1	23.44	-
Cc1cc(C(=O)NCCCN(C)CC(F)(F)F)no1	39.58	50.19
CCC(C)(C)NC(=O)c1nn(-c2ccccc2)nc1C	53.64	56.09
CN(C)CCOc1ccc(NS(C)(=O)=O)cc1Cl	-	-18.47
CC(OC(=O)Cn1cnc2ccccc2c1=O)C(N)=O (centres unmarked)	-10.41	-
CN(c1ccccc1C#N)S(C)(=O)=O	-	19.55
Cc1ccc(CNc2nnnn2CCO)cc1	21.23	6.192
Cc1n[nH]c(C)c1S(=O)(=O)N(C)CC(=O)NC1CC1	15.2	-
O=C(CCc1cc(Cl)cs1)NCCN1CCOCC1	-	5.756
Nc1cnn(CC(=O)NC2CCCC2)c1	22.78	-
Cc1nc(CN)cc(N2CCC(N3CCCC3)CC2)n1	38.98	-
CCN(Cc1cscn1)Cc1nc(COC)no1	11.74	-
CC(c1cccc(O)c1)N(C)C(=O)c1ccncc1F (centres unmarked)	26.43	-
OCCCN1CCN(c2nccc3occc23)CC1	-	-11.69
CC(C)N1C(=O)CC(NC(=O)c2cc(Br)c[nH]2)C1=O (centres unmarked)	-	6.684
COc1ccccc1NC(=O)CNCC(C)C	-	3.987
N[C@H]1CCN(S(=O)(=O)c2ccccc2)C1	5.194	0.3448
COc1ccc(CN)nc1	17.41	5.946
CC1CCCN(c2nc(C(=O)N3CCOCC3)cs2)C1 (centres unmarked)	64.78	-
COC(=O)Cc1cc(O)n[nH]1	-	-15.77
Cn1cc(CNCCNC(=O)c2cccs2)cn1	-	-2.168
CS(=O)(=O)CC1CCCN(c2nnc(C3CC3)o2)C1 (centres unmarked)	4.417	-
Cc1cc(N2CCNCC2)ccn1	4.598	-
N#Cc1cccnc1OC1CCC(N)CC1 (centres unmarked)	25.23	-
O=C(NC1CC1)c1cc(-c2cccs2)on1	41.35	28.69
CCO[C@H]1CN(Cc2ccc3c(c2)CCO3)C[C@@H]1O	13.22	-
COc1cccc(CN)n1	34.75	6.173
CCN(c1ccc(C(=O)NC[C@H](C)O)cc1)C(C)C	38.59	-
CC[C@H](CO)NS(=O)(=O)c1c(F)cc(C#N)cc1F	-	7.883
CC(=O)c1c(F)cccc1N1CCOCC1	-	51.26
Cc1ccsc1CN(CC(=O)N1CCNC1=O)C(C)C	9.138	-
O=C(c1ccncc1)N1CCC2(CCCCO2)CC1	23.96	8.071
Cc1cccc(NC(=O)NCCCn2cccn2)n1	30.39	-
NC(=O)c1ccsc1NC(=O)CCN1CCCC1	71.65	53.67
Cc1nn(C)c(Cl)c1C(=O)N1CCN(C2CC2)CC1	-2.13	-
CCCn1nnc(NC(=O)c2ccccc2F)n1	67.09	62.03
O=C(NCCn1ccnc1)N1CCc2sccc2C1	27.16	-
NC(=O)C1CN(C/C=C/c2ccc(F)cc2)CCO1 (centres unmarked)	44.99	33.3
CC(=O)NCCc1nc(-c2ccc(C)nn2)no1	-1.222	-
O=C(CC1C=CCC1)N1CCN(c2ccccn2)CC1 (centres unmarked)	56.51	62.01
CN(C(=O)COc1ccccc1C(N)=O)C1CC1	-	12.32
O=C(Cn1ccnc1)Nc1ccccc1	3.502	-13.03
CC1(N)CCN(Cc2ccccc2)C1 (centres unmarked)	-	3.357
O=S(=O)(NCc1ccncc1)c1cccc2nonc12	-	-2.436
O=C(CCC(=O)c1ccccc1)NCc1n[nH]c(=O)[nH]1	-5.938	-
CCCC(C)NC(=O)c1coc(C)n1 (centres unmarked)	51.57	-
CCc1noc(Cn2cnc3ccccc3c2=O)n1	51.26	30.14
CN1CCC(Oc2ccc(C(N)=O)cn2)CC1	13.63	-
COCc1nc2n(n1)CCCC2N (centres unmarked)	-3.41	-
CCc1[nH]nc(N)c1-c1ccc2c(c1)OCO2	39.54	-
Cc1cccc(NCCC(=O)NC2CCCC2)n1	53.87	-

5 of the entries, repeated:

structure,Mtb glucose medium,Mtb cholesterol medium
CCCc1ccc(CN2CCCN(C(C)=O)CC2)o1,23.44,-
CC1(N)CCN(Cc2ccccc2)C1 (centres unmarked),-,3.357
Cc1cc(C(=O)NCCCN(C)CC(F)(F)F)no1,39.58,50.19
CCN(c1ccc(C(=O)NC[C@H](C)O)cc1)C(C)C,38.59,-
Cc1ccccc1C(=O)N1CCN(S(C)(=O)=O)[C@@H](C)C1,4.337,-

Data taken from ChEMBL document CHEMBL3988442, “University of Dundee, Small-Polar-MMV Screening Library” (2021).